Measurements as given in patent US20080182249A1, “Expression systems for mammalian and mycobacterial desaturases” (priority 2006, published 2008).

Target: T1, mycobacterial DesA3 (Rv3229c) (UniProt P9WNZ3)
T1 sequence: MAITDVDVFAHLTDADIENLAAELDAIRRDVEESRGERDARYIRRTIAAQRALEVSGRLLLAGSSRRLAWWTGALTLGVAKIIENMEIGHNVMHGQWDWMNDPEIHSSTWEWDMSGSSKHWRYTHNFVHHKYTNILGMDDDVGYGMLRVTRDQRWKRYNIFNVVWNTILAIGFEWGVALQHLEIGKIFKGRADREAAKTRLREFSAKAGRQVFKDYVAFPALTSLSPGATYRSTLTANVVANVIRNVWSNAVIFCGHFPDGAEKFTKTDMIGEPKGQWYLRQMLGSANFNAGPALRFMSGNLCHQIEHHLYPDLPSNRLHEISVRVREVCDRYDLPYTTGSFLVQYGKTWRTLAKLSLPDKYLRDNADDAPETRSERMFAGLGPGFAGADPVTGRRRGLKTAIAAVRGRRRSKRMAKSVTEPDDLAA

In the case of “Mycobacterium tuberculosis H37Rv oxidoreductase Rv3230c”, the “increase in activity of production of 18:1-CoA” value is reported as “up to 30-fold” and the “rate of production of 18:1-CoA” value is reported as “greater than 10-fold increase”.
